Anti-infective test results gathered from many reports (values: NIAID ChemDB through PubChem).

Common to all: enzyme or target tests; species: Hepatitis C virus; protein: Nonstructural protein 5B

Inhibition is in % at the dose shown (toxicity tests: loss of growth or viability). Blank or dashed fields: not listed here. ICn: concentration for n% inhibition. Rows are shuffled and stem from different studies. a–b is a range or a potency band.

structure,read-out,tested at,value
O=C(O)CCN1C(=O)C(=Cc2ccc(-c3cc4ccc(OCc5ccccc5)cc4o3)o2)SC1=S,IC50,,≤1 µM
COCCN1CCN(C(=O)CN2CCN(c3cc(Nc4ccc(N5CCOCC5)cc4)nc(SC)n3)CC2)CC1,inhibition,1 µg/mL,60%
CNC(=O)CN1CCN(c2nc(Nc3ccc4cn[nH]c4c3)nc(OC)n2)CC1,inhibition,0.1 µg/mL,2%
CSc1nc(Nc2ccc(N3CCOCC3)cc2)cc(N2CCN(CC(=O)N3CCC(N4CCCCC4)CC3)CC2)n1,inhibition,1 µg/mL,75%
CCOC(=O)C1=CN(N2CCN(c3nc(Nc4ccc5[nH]ncc5c4)nc(OC)n3)CC2)C(SC)N=C1,inhibition,0.1 µg/mL,0%
O=C1OC(CCc2ccc(O)cc2)(C2CCCC2)CC(O)=C1N(c1ccccc1)c1ccccc1,IC50,,1–10 µM
O=C(O)CCN1C(=O)C(=Cc2ccc(-c3cc(C(F)(F)F)cc(C(F)(F)F)c3)o2)SC1=S,IC50,,≤1 µM
CSc1nc(Nc2ccc(N3CCOCC3)cc2)cc(N2CCN(CC(=O)N3CCCC3)CC2)n1,inhibition,1 µg/mL,73%
O=C(O)CN1C(=O)C(=Cc2ccc(-c3ccc(Cl)cc3)o2)SC1=S,IC50,,≤1 µM
COc1cc(OC)c(CCC2(C3CCCC3)CC(O)=C(Sc3ncc(CO)n3C)C(=O)O2)cc1Cl,IC50,,<1 µM
CSc1nc(Nc2ccc(N3CCOCC3)cc2)cc(N2CCN(CC(=O)NCCN3CCCC3)CC2)n1,inhibition,1 µg/mL,72%
CNC(=O)c1c(-c2ccc(F)cc2)oc2cc(-c3c(C)noc3C)c(OCc3cc(C)on3)cc12,IC50,,≤0.5 µM
O=C(c1ccc(S(=O)(=O)Nc2ccc(N3CCOCC3)cc2)cc1)N(Cc1ccccn1)Cc1ccccn1,inhibition,0.01 µg/mL,18%
CSc1nc(Nc2ccc(N3CCOCC3)cc2)cc(N2CCN(CC(=O)N3CCSC3)CC2)n1,inhibition,1 µg/mL,64%
Cc1cc(C)nc(-c2ccc(C=C3SC(=S)N(c4ccc(C(=O)O)cc4)C3=O)o2)c1,IC50,,≤1 µM
CSc1nc(Nc2ccc(N3CCOCC3)cc2)cc(N2CCN(CC(=O)N3CCN(CCO)CC3)CC2)n1,inhibition,1 µg/mL,70%
Cc1cnc(CNC(=O)c2ccc(S(=O)(=O)Nc3ccc(N4CCOCC4)cc3)cc2)cn1,inhibition,0.01 µg/mL,47%
CNC(=O)c1c(-c2ccc(F)cc2)oc2cc(N(C)S(C)(=O)=O)c(OC(C)C)cc12,IC50,,≤0.5 µM
O=C(NCCN1CCOCC1)c1ccc(S(=O)(=O)Nc2ccc(N3CCOCC3)cc2)cc1,inhibition,0.1 µg/mL,40%
COc1ccc(CCC2(C3CCCC3)CC(O)=C(Sc3nc4[nH]ccc4c(=O)[nH]3)C(=O)O2)cc1,IC50,,<1 µM
COc1nc(NCCc2c[nH]c3ccccc23)nc(Nc2ccc3[nH]ncc3c2)n1,inhibition,0.1 µg/mL,7%
CCOc1ccc(CCC2(C3CCCC3)CC(=O)CC(=O)O2)cc1,IC50,,1–10 µM
CNC(=O)c1c(-c2ccc(F)cc2)oc2cc(C(C)(C)NS(C)(=O)=O)c(OC)cc12,IC50,,≤0.5 µM
COc1nc(Nc2ccc3[nH]ncc3c2)nc(N2CCC(O)CC2)n1,inhibition,10 µg/mL,34%
Cc1cc(N2C(=O)C(=Cc3cc(C(F)(F)F)ccc3Cl)SC2=S)ccc1C(=O)O,IC50,,≤1 µM
COc1nc(Nc2ccc3[nH]ncc3c2)nc(NN2CCN(C)CC2)n1,inhibition,0.1 µg/mL,0%
COc1ccc(CCC2(C3CCCC3)CC(O)=C(Sc3n[nH]c(-c4ccncc4)n3)C(=O)O2)cc1,IC50,,<1 µM
CNC(=O)c1c(-c2ccc(F)cc2)oc2cc(N(C)S(C)(=O)=O)c(OCc3ccc(C(=O)O)c(O)c3)cc12,IC50,,≤0.5 µM
COc1nc(NCCN2CCOCC2)nc(Nc2ccc3[nH]ncc3c2)n1,inhibition,0.1 µg/mL,0%
Cc1ccnc(C=C2SC(=S)N(c3ccc(C(=O)O)cc3)C2=O)c1,IC50,,≤1 µM
O=C1CC(=O)OC(CCc2cccc(Cl)c2)(C2CCCC2)C1,IC50,,1–10 µM
CSc1nc(Nc2ccc(N3CCOCC3)cc2)cc(N2CCN(CC(=O)N3CCN(c4ccc(O)cc4)CC3)CC2)n1,inhibition,1 µg/mL,73%
CNC(=O)c1c(-c2ccc(F)cc2)oc2cc(N(C)S(C)(=O)=O)c(OCc3nc(N)n[nH]3)cc12,IC50,,≤0.5 µM
O=C(O)CCN1C(=O)C(=Cc2ccc(-c3ccc4c(c3)Cc3ccccc3-4)o2)SC1=S,IC50,,≤1 µM
O=C(NCc1ccccn1)c1ccc(S(=O)(=O)Nc2ccc(N3CCOCC3)cc2)cc1,inhibition,0.1 µg/mL,65%
COc1nc(Nc2ccc3cn[nH]c3c2)nc(NN2CCOCC2)n1,inhibition,1 µg/mL,32%
CS(=O)(=O)c1ccc(CCC2(C3CCCC3)CC(=O)CC(=O)O2)cc1,IC50,,1–10 µM

5 of the rows above, restated:

| structure | read-out | tested at | value |
|---|---|---|---|
| O=C(NCCN1CCOCC1)c1ccc(S(=O)(=O)Nc2ccc(N3CCOCC3)cc2)cc1 | inhibition | 0.1 µg/mL | 40% |
| CSc1nc(Nc2ccc(N3CCOCC3)cc2)cc(N2CCN(CC(=O)N3CCN(c4ccc(O)cc4)CC3)CC2)n1 | inhibition | 1 µg/mL | 73% |
| O=C(O)CCN1C(=O)C(=Cc2ccc(-c3ccc4c(c3)Cc3ccccc3-4)o2)SC1=S | IC50 |  | ≤1 µM |
| CNC(=O)c1c(-c2ccc(F)cc2)oc2cc(C(C)(C)NS(C)(=O)=O)c(OC)cc12 | IC50 |  | ≤0.5 µM |
| COc1ccc(CCC2(C3CCCC3)CC(O)=C(Sc3n[nH]c(-c4ccncc4)n3)C(=O)O2)cc1 | IC50 |  | <1 µM |